Measured values from several laboratories, pooled; numbers as filed in NIAID ChemDB.

All rows: growth or infection tests; species: HIV-1; endpoint: EC50

An empty or dashed field is not shown. Neighbouring rows are from separate reports. ECn: concentration that inhibits the pathogen or its effect by n%.

smiles,strain or isolate,method,mutations,cells,value
Cc1ccc(OCCOc2ccc(-c3cnc(C)c([C@H](OC(C)(C)C)C(=O)O)c3N3CCC(C)(C)CC3)nc2)cc1,NL4-3,luminescence,-,MT-2,0.0015 µM
Cc1cc(C=O)cc(C)c1Oc1ncc([N+](=O)[O-])c(Nc2ccc(C#N)cc2)n1,RES056,MTT,-,MT-4,>37 µM
CC[C@H](C)[C@H](NC(=O)[C@@H]1CCCN1[P@@](=O)(OC)[C@@H](Cc1ccccc1)NC(=O)OCc1ccccc1)C(=O)NCC(C)C,RF,-,-,C8166,>100 µM
CC(=O)N1CCC(C(=O)N(CCCN2CCC(Cc3ccc(C(N)=O)cc3)CC2)c2ccc(C)c(Cl)c2)CC1,92UG029,p24 / ELISA,-,CEMx174 5.25 M7,>300 µM
Cc1cc2c(cc1Cl)Sc1nccn1S2(=O)=O,-,cytopathic effect / XTT,-,CEM,44 µM
COc1c(Cl)cc(C(=CCCCCN[C@@H]2CC[C@]3(C)C4CC[C@@]5(C)C(CC[C@@H]5C(C)CCCC(C)C)C4CC[C@H]3C2)c2cc(Cl)c(OC)c(C(=O)O)c2)cc1C(=O)O,RF,cytopathic effect / MTT,-,MT-4,>200 µM
Cc1cc2c(cc1Cl)Sc1ncc(C)n1S2(=O)=O,-,cytopathic effect / XTT,-,CEM,0.94 µM
Cc1ncc(-c2ccc(OCCCCC(F)(F)F)cn2)c(N2CCC(C)(C)CC2)c1[C@H](OC(C)(C)C)C(=O)O,NL4-3,luminescence,-,MT-2,0.0015 µM
COc1cc(C[C@@H]2C(=O)N[C@@H](C(C)C)CC(=O)O[C@@H]([C@H](O)c3ccccc3)/C=C/C=C(\C)C(OC)CCC/C=C(\C)C(=O)C(C)C(=O)N2C)ccc1O,LAI,-,-,TZM-bl,0.018 µM
Cc1ncc(-c2cnc(OCCC(F)(F)F)c(F)c2)c(N2CCC(C)(C)CC2)c1[C@H](OC(C)(C)C)C(=O)O,NL4-3,luminescence,-,MT-2,0.0054 µM
CCC(C)[C@H](NC(=O)[C@@H]1CCCN1[P@](=O)(OC)[C@H](Cc1ccccc1)NC(=O)[C@H](CC(N)=O)NC(=O)OC(C)(C)C)C(=O)NCC(C)C,RF,-,-,C8166,>100 µM
Cc1cc(C=O)cc(C)c1Oc1ncc(N)c(Nc2ccc(C#N)cc2)n1,RES056,MTT,-,MT-4,8.4 µM
CCc1c(Oc2cc(C)cc(C)c2)n(CC2CC=CC2)c(=O)[nH]c1=O,IIIB,XTT,-,CEM,0.002 µM
Cc1cc(Cl)cc2c1S(=O)(=O)n1c(C)cnc1S2,-,cytopathic effect / XTT,-,CEM,9 µM
CC(C)OC(=O)c1cc(NC(=S)OC(C)C)ccc1Cl,IIIB,syncytia,RT-L100I,CEM,2.06 µM
CCN1C[C@H](C)n2c(c(O)c3c(=O)n(Cc4ccc(F)c(Cl)c4)nc(C(=O)NC)c32)C1=O,BaL,syncytia,-,PBMC,0.0009 µM
Cc1ncc(-c2ccc(OCC3CCCCC3)cn2)c(N2CCC(C)(C)CC2)c1[C@H](OC(C)(C)C)C(=O)O,NL4-3,luminescence,-,MT-2,0.0016 µM
O=C(NCc1ccc(F)cc1)c1nc(N2CCCCS2(=O)=O)c2cccnc2c1O,IIIB,syncytia,-,C8166,0.0106 µM
CC[C@H](C)[C@H](NC(=O)[C@@H]1CCCN1[P@](=O)(OC)C(Cc1ccccc1)NC(=O)OCc1ccccc1)C(=O)NCC(C)C,RF,-,-,C8166,25 µM
N#Cc1ccc(Nc2nc(Oc3c(Cl)cccc3Cl)ncc2NC(=O)C(F)(F)F)cc1,IIIB,MTT,-,MT-4,0.14 µM
CC[C@H](C)[C@H](NC(=O)[C@H](Cc1ccccc1)NP(=O)(OC)C(N)Cc1ccccc1)C(=O)NCC(C)C,RF,-,-,C8166,20 µM
N#Cc1ccc(Nc2nc(Oc3c(Br)cc(Br)cc3Br)ncc2[N+](=O)[O-])cc1,IIIB,MTT,-,MT-4,3.9 µM
CC[C@H](C)[C@H](NC(=O)[C@@H]1CCCN1P(=O)(OC)C(CC1CCCCC1)NC(=O)OCc1ccccc1)C(=O)NCC(C)C,RF,-,-,C8166,8 µM
C[C@]12CCC3C(CC[C@H]4C[C@@H](CC=C(c5cc(Cl)c(O)c(C(=O)O)c5)c5cc(Cl)c(O)c(C(=O)O)c5)CC[C@]34C)C1CC[C@@H]2CC=C(c1cc(Cl)c(O)c(C(=O)O)c1)c1cc(Cl)c(O)c(C(=O)O)c1,IIIB,cytopathic effect / MTT,-,MT-4,14 µM
CC(=O)Nc1cnc(Oc2c(Cl)cc(Cl)cc2Cl)nc1Nc1ccc(C#N)cc1,RES056,MTT,-,MT-4,>33 µM
COc1c(Cl)cc(C(=CCCCCN(C(=O)C=C(c2cc(Cl)c(OC)c(C(=O)O)c2)c2cc(Cl)c(OC)c(C(=O)O)c2)[C@H]2CC[C@]3(C)C4CC[C@@]5(C)C(CC[C@@H]5C(C)CCCC(C)C)C4CC[C@H]3C2)c2cc(Cl)c(OC)c(C(=O)O)c2)cc1C(=O)O,RF,cytopathic effect / MTT,-,CEM + CEM-SS,6.9 µM
Cc1cc(C)cc(Oc2c(C(C)C)c(=O)[nH]c(=O)n2CC2CC2)c1,IIIB,XTT,-,CEM,0.0002 µM
N#Cc1ccc(Nc2nc(Oc3c(Cl)cc(Cl)cc3Cl)ncc2N)cc1,IIIB,MTT,-,MT-4,0.012 µM
COc1c(Cl)cc(C(=CCCCCN[C@H]2CC[C@]3(C)C4CC[C@@]5(C)C(CC[C@@H]5C(C)CCCC(C)C)C4CC[C@H]3C2)c2cc(Cl)c(OC)c(C(=O)O)c2)cc1C(=O)O,RF,cytopathic effect / MTT,-,MT-4,>316 µM
Cc1ncc(-c2ccc(N(C)CCOc3ccc(F)cc3Cl)cn2)c(N2CCC(C)(C)CC2)c1[C@H](OC(C)C)C(=O)O,NL4-3,luminescence,-,MT-2,0.005 µM
CCc1c(Oc2cc(C)cc(C)c2)n(CC2CC2)c(=O)[nH]c1=O,IIIB,XTT,-,CEM,0.001 µM
CCN1C(=O)NC(=O)C(C(C)C)C1CC1CC(C)CC(C#N)C1=O,A17,p24 / ELISA,-,C8166,1.57 µM
Cc1ncc(-c2ccc(OCCCC(F)(F)F)cn2)c(N2CCC(C)(C)CC2)c1[C@H](OC(C)(C)C)C(=O)O,NL4-3,luminescence,-,MT-2,0.002 µM
CCc1c(Oc2cc(C)cc(C)c2)n(Cc2ccccc2)c(=O)[nH]c1=O,IIIB,XTT,-,CEM,0.004 µM

5 of the rows above, restated:

smiles	strain or isolate	method	mutations	cells	value
Cc1ncc(-c2cnc(OCCC(F)(F)F)c(F)c2)c(N2CCC(C)(C)CC2)c1[C@H](OC(C)(C)C)C(=O)O	NL4-3	luminescence	-	MT-2	0.0054 µM
O=C(NCc1ccc(F)cc1)c1nc(N2CCCCS2(=O)=O)c2cccnc2c1O	IIIB	syncytia	-	C8166	0.0106 µM
N#Cc1ccc(Nc2nc(Oc3c(Cl)cc(Cl)cc3Cl)ncc2N)cc1	IIIB	MTT	-	MT-4	0.012 µM
Cc1cc(Cl)cc2c1S(=O)(=O)n1c(C)cnc1S2	-	cytopathic effect / XTT	-	CEM	9 µM
COc1cc(C[C@@H]2C(=O)N[C@@H](C(C)C)CC(=O)O[C@@H]([C@H](O)c3ccccc3)/C=C/C=C(\C)C(OC)CCC/C=C(\C)C(=O)C(C)C(=O)N2C)ccc1O	LAI	-	-	TZM-bl	0.018 µM